From publication PMC6009982, “Diaryl ethers with carboxymethoxyphenacyl motif as potent HIV-1 reverse transcriptase inhibitors with improved solubility” (Journal of Enzyme Inhibition and Medicinal Chemistry, 2017)

Assays:
HIV-1 RT = HIV-1 RT (Human immunodeficiency virus type 1 group M subtype B, UniProt P04585); assay: HIV RT inhibitory activity, colorimetric Reverse Transcriptase Assay kit (Roche); assay type: biochemical; details: tested form: K salt; for IC50: HIV-1 RT, 2 ng enzyme, at least two measurements
[1] = test system: HIV NL4-3-GFP-I in SupT1 cells; assay: Infection assay in SupT1 cells, GFP flow cytometry; assay type: cell-based, HIV-1; details: for Antiviral activity: at 10-fold lower concentration than threshold toxic concentration, tested form: K salt
[2] = test system: HIV NL4-3-GFP-I in CD4+ T cells; assay: Infection assay in CD4+ T cells, GFP flow cytometry; assay type: cell-based; details: read-out: IC50 (infection rate); primary CD4+ T cells, HIV-1, 72 h; tested form: K salt

| SMILES | IC50 (HIV-1 RT) [nM] | Decrease of IC50 value relative to 8a (HIV-1 RT; chlorine moved from position 4 (8a) to 5 (8b)) | Antiviral activity [1] | IC50 ([1]; read-out: IC50 (infection rate), HIV-1, 72 h, tested form: K salt) [nM] | IC50 [2] [nM] |
| --- | --- | --- | --- | --- | --- |
| N#Cc1cc(Cl)cc(Oc2cc(Cl)ccc2OCC(=O)c2ccc(OCC(=O)O)cc2)c1 | 3400 | about seven-fold decrease | – |  |  |
| N#Cc1cc(Cl)cc(Oc2cc(OCC(=O)c3ccc(Oc4ccc(OCC(=O)O)cc4)cc3)ccc2Cl)c1 | 360 |  | + | 250 | 250 |
| N#Cc1cc(Cl)cc(Oc2ccc(Cl)cc2OCC(=O)c2ccc(Oc3ccc(OCC(=O)O)cc3)cc2)c1 | 1900 |  | + |  |  |
